Results from paper PMC7385629 (Scientific Reports, 2020).

Tested on: N[C@@H](Cc1ccc(O)cc1)C(=O)O
Experiment: purified protein
Settings: co-substrate sodium pyruvate 100 mM, 30 µM PLP, pH 8, 37 °C, tyrosine 0-7 mM, apparent

Sequence: CTAT (Leishmania donovani)
- Km: 4.581 ± 0.627 mM
